Anti-infective test results gathered from many reports (values: NIAID ChemDB through PubChem).

Shared fields: enzyme or target tests

Inhibition is in % at the dose shown (toxicity tests: loss of growth or viability).

compound,agent,strain,mutations,protein,method,read-out,dose,value
COc1ccc(/C=C/NC(=O)Nc2ccc(Cl)cn2)cc1OC,HIV-1,-,RT-K103N,Reverse transcriptase,nucleotide incorporation,fold resistance,-,2.86
CNC(=O)[C@@H](NC(=O)[C@H](OCc1ccccc1)[C@H](O)[C@@H](O)[C@@H](OCc1ccccc1)C(=O)N[C@H]1c2ccccc2C[C@H]1O)C(C)C,HIV,-,PR-L90M,Protease,-,fold resistance,-,1.61
CC(=O)c1ccc(C)cc1NC(C(N)=O)c1c(Cl)cccc1Cl,HIV-2,EHO,RT-E219D,Reverse transcriptase,nucleotide incorporation,IC50,-,>1425 µM
COOCC1=C(C)N=C2S/C(=N\Nc3cc(C(=O)O)ccc3C)C(=O)N2C1c1ccccc1,HIV-1,Clinical isolate,-,RNase H,RNase H / fluorescence,IC50,-,44.86 µM
C[C@H]1[C@H](O)c2c(c3c(c4c(-c5ccccc5)cc(=O)oc24)OC(C)(C)C=C3)O[C@@H]1C,HIV-2,-,RT-Y181I,Reverse transcriptase,scintillation proximity / radiometric,IC50,-,0.41 µM
CCOCn1c(Cc2ccccc2)c(C(C)C)c(=O)[nH]c1=O,HIV-2,ROD,-,Reverse transcriptase,nucleotide incorporation,IC50,-,1441 µM
O=c1c2cccn2c2ccccc2n1CCNC(=S)Nc1ccc(Cl)cn1,HIV-1,-,RT-Y181I,Reverse transcriptase,nucleotide incorporation,Ki,-,>5 µM
O=S1(=O)N(Cc2ccc(CO)cc2)[C@H](COc2ccccc2)[C@H](O)[C@@H](O)[C@@H](COc2ccccc2)N1Cc1ccc(CO)cc1,HIV,-,PR-V82A I84V L90M,Protease,-,Ki,-,0.117 µM
O=c1ccc2cc(O[C@@H]3O[C@H](CO)[C@@H](O)[C@H](O)[C@H]3O)c(O)cc2o1,HIV-1,-,-,gp41,ELISA,inhibition,50 µg/mL,5%
O=C(O[C@@H]1Cc2c(O)cc(O)cc2O[C@@H]1c1ccc(O)c(O)c1)c1cc(O)c(O)c(O)c1,HIV-1,-,-,gp120 + CD4,fluorescence,IC50,-,>100 µM
O=C(CO)N[C@@H]([C@@H](O)[C@H](O)[C@H](O)CO)[C@@H](O)C(=O)C(=O)O,HIV-1,MN,-,gp120,-,inhibition,80 µM,57.6%
O=C(/C=C/c1ccc(O)c(O)c1)O[C@H]1[C@H](O)[C@@H](O)[C@H](OCCc2ccc(O)c(O)c2)O[C@@H]1CO,HIV-1,-,-,gp41,ELISA,inhibition,50 µg/mL,0%
Cc1cn([C@@H]2O[C@H](CO[Si](C)(C)C(C)(C)C)C3(OS(=O)(=O)C=C3N)[C@H]2O[Si](C)(C)C(C)(C)C)c(=O)n(C)c1=O,HIV,-,RT-N137S,Reverse transcriptase,nucleotide incorporation / radiometric,IC50,-,1.4 µM
O=C1c2cccnc2C(=O)N1CCNC(=S)Nc1ccc(Br)cn1,HIV-1,-,RT-Y181I,Reverse transcriptase,nucleotide incorporation,Ki,-,0.2 µM
CC(C)[C@H](NC(=O)N(C)Cc1ccccn1)C(=O)N[C@@H](Cc1ccccc1)[C@@H](O)[C@H](O)[C@H](Cc1ccccc1)NC(=O)[C@@H](NC(=O)N(C)Cc1ccccn1)C(C)C,HIV-1,-,PR-R8Q,Protease,fluorescence,fold resistance,-,23
[B]C(=O)N[C@H](CC[C@@H]1O[C@H](CO)[C@H](O)[C@H](O)[C@H]1O)C(=O)OC,HIV-1,-,-,gp120,ELISA,inhibition,1000 µg/mL,0%
COc1cc(C[C@@]2(O)CO[C@H](c3ccc(O)c(OC)c3)[C@H]2CO)ccc1O,HIV-1,-,-,gp41,ELISA,inhibition,50 µg/mL,1.9%
Cc1cc2c(cc1C)n1cccc1c(=O)n2CCNC(=S)Nc1ccc(Br)cn1,HIV-1,-,RT-Y181I,Reverse transcriptase,nucleotide incorporation,Ki,-,0.99 µM
CC(C)=CCN1Cc2cccc3[nH]c(=S)n(c23)C[C@@H]1C,HIV-1,-,RT-H208Y,Reverse transcriptase,-,Ki,-,0.77 µM
Cc1c(Sc2ccccc2)n(COCCO)c(=O)[nH]c1=O,HIV-1,-,RT-L100I,Reverse transcriptase,-,fold resistance,-,>10
O=C1c2ccncc2C(=O)N1CCNC(=S)Nc1ccc(Br)cn1,HIV-1,-,RT-Y181I,Reverse transcriptase,nucleotide incorporation,Ki,-,>5 µM
O=c1ccc2cc(O)c(O)cc2o1,HIV-1,-,-,gp41,ELISA,IC50,-,>50 µg/mL
CN[C@H]1C[C@@H]2O[C@](C)([C@H]1OC)n1c3ccccc3c3c4c(c5c6ccccc6n2c5c31)C(=O)NC4,HIV-1,LAV,-,Tat:TAR/LTR,-,Ki,-,0.0007 µM
CC[C@H]1C(=O)Nc2ccc(F)cc2N1C(=O)OC(C)C,HIV,-,RT-N137E,Reverse transcriptase,nucleotide incorporation / radiometric,fold resistance,-,1.2
CC(C)c1nc(C(=O)NCc2ccc(F)cc2)c([O-])c(=O)n1C.CC(C)c1nc(C(=O)NCc2ccc(F)cc2)c([O-])c(=O)n1C.[Mg+2],HIV-1,-,-,RNase H,substrate cleavage,IC50,-,9.77 µM
COC(=O)C(Cc1ccccc1)NC(=O)[C@@H](NC(=O)[C@@H](C[C@H](O)[C@H](CC1CCCCC1)NC(=O)[C@@H](NC(=O)[C@H](Cc1ccccc1)CS(=O)(=O)C(C)(C)C)C(C)C)C(C)C)C(C)C,HIV-2,EHO,RT-E219D,Reverse transcriptase,nucleotide incorporation,IC50,-,>1553 µM
CC(C)(C)OC(=O)N[C@@H](Cc1ccccc1)[C@H](O)[C@H](O)[C@H](Cc1ccccc1)NC(=O)OC(C)(C)C,HIV-1,-,PR-R8Q,Protease,fluorescence,fold resistance,-,1.68
Cc1cn([C@@H]2O[C@H](CO[Si](C)(C)C(C)(C)C)[C@@]3(OS(=O)(=O)C=C3N)[C@H]2O[Si](C)(C)C(C)(C)C)c(=O)[nH]c1=O,HIV,-,RT-N137E,Reverse transcriptase,nucleotide incorporation / radiometric,fold resistance,-,1.3
COc1ccccc1-c1noc(=O)n1-c1cccc(C(F)(F)F)c1,HIV-1,-,-,p17,PCR,IC50,-,~1 µM

Again, the opening 2 rows:

compound	agent	strain	mutations	protein	method	read-out	dose	value
COc1ccc(/C=C/NC(=O)Nc2ccc(Cl)cn2)cc1OC	HIV-1	-	RT-K103N	Reverse transcriptase	nucleotide incorporation	fold resistance	-	2.86
CNC(=O)[C@@H](NC(=O)[C@H](OCc1ccccc1)[C@H](O)[C@@H](O)[C@@H](OCc1ccccc1)C(=O)N[C@H]1c2ccccc2C[C@H]1O)C(C)C	HIV	-	PR-L90M	Protease	-	fold resistance	-	1.61

ICn is the concentration giving n% inhibition. Neighbouring rows are from separate reports. Fold resistance: result on the changed form divided by that on wild type. An empty or dashed field is not shown.